From article PMC10265666, “Lung SPLUNC1 Peptide Derivatives in the Lipid Membrane Headgroup Kill Gram-Negative Planktonic and Biofilm Bacteria” (Biomacromolecules, 2023) come the findings set out here.

No end group written: not given here.

Type in all cases: physicochemical
A short description of data set [1]: X-ray diffuse scattering, G(−)IM LMM. Conditions: G(−)IM LMM with peptide; for 2DC (±0.5), hydrocarbon thickness / DHH (±0.5), distance between phosphate groups: 75:1, 37 °C; for 2DC (±0.5), hydrocarbon thickness: control 29.1; for DHH (±0.5), distance between phosphate groups: control 39.2; for area/lipid (±1): 75:1 lipid/peptide (Figure 8), 37 °C, control 70.8.

Data set [2] can be described thus: X-ray diffuse scattering, Euk33 LMM. Conditions: Euk33 LMM with peptide; for 2DC (±0.5), hydrocarbon thickness / DHH (±0.5), distance between phosphate groups: 75:1, 37 °C; for 2DC (±0.5), hydrocarbon thickness: control 32.0; for DHH (±0.5), distance between phosphate groups: control 40.3; for area/lipid (±1): 75:1 lipid/peptide (Figure 9), 37 °C, control 64.2.
The nature of data set [3]: Neutron reflectivity, peptide partitioning in tethered bilayer. Conditions: single tethered G(−)IM bilayer, 37 °C, NR.

Take `CC[C@H](C)[C@H](NC(=O)[C@@H](NC(=O)[C@H](CO)NC(=O)[C@H](CCCCN)NC(=O)[C@@H](NC(=O)[C@H](CCCCN)NC(=O)CNC(=O)[C@H](Cc1c[nH]c2ccccc12)NC(=O)[C@@H](NC(=O)CNC(=O)CNC(=O)[C@@H](NC(=O)[C@H](Cc1c[nH]c2ccccc12)NC(=O)CNC(=O)[C@H](CCCCN)NC(=O)[C@@H](NC(=O)[C@H](CCCCN)NC(=O)[C@H](CCCCN)NC(=O)[C@H](Cc1ccccc1)NC(=O)[C@H](Cc1ccccc1)NC(=O)[C@H](CCCCN)NC(=O)[C@H](CCCCN)NC(=O)[C@@H](N)CC(C)C)C(C)C)C(C)C)C(C)C)C(C)C)C(C)C)C(=O)N[C@@H](CCCCN)C(=O)O` (stereo in doubt) [A4-153]: in data set [1], the “2DC (±0.5), hydrocarbon thickness” value was found to be 29.5 Å; the “DHH (±0.5), distance between phosphate groups” value (“DHH” below) turned out to be 39.9 Å; the “area/lipid (±1)” value is 69.9 Å^2. Further, in data set [2], the “2DC (±0.5), hydrocarbon thickness” value is listed as 31.7 Å; the “DHH” value is 41.4 Å; the “area/lipid (±1)” value is reported as 65.0 Å^2. For the same compound, in data set [3], the “fraction of protein in bulk solvent” value stood at 0.25 ± 0.05, the “fraction of protein in hydrocarbons” value stood at 0.20 ± 0.10 and the “fraction of protein in outer headgroups” value was 0.50 ± 0.10.

`CC(C)[C@H](NC(=O)CNC(=O)CNC(=O)[C@@H](NC(=O)[C@H](Cc1c[nH]c2ccccc12)NC(=O)CNC(=O)[C@H](CCCCN)NC(=O)[C@@H](NC(=O)[C@H](CCCCN)NC(=O)[C@H](CCCCN)NC(=O)[C@H](Cc1ccccc1)NC(=O)[C@H](Cc1ccccc1)NC(=O)[C@H](CCCCN)NC(=O)[C@H](CCCCN)NC(=O)[C@@H](N)Cc1ccccc1)C(C)C)C(C)C)C(=O)N[C@@H](Cc1c[nH]c2ccccc12)C(=O)NCC(=O)N[C@@H](CCCCN)C(=O)N[C@H](C(=O)N[C@@H](CCCCN)C(=O)N[C@@H](CO)C(=O)N[C@H](C(=O)N[C@H](C(=O)N[C@@H](CCCCN)C(=O)O)C(C)C)C(C)C)C(C)C` (stereo in doubt) [A4-157]: in data set [3], the “fraction of protein in bulk solvent” value is 0.40 ± 0.10, the “fraction of protein in hydrocarbons” value is listed as 0.38 ± 0.09 and the “fraction of protein in outer headgroups” value turned out to be 0.21 ± 0.09.

Turning to FKKFLKKFKGWLGGLWGK [A4-183], in data set [3], the “fraction of protein in bulk solvent” value is listed as 0.59 ± 0.09, the “fraction of protein in hydrocarbons” value stood at 0.14 ± 0.08 and the “fraction of protein in outer headgroups” value is reported as 0.26 ± 0.06.

Consider “GVKKKWKKKLGLTLWLKISGVV [A4-198, version scrambled to α-helical content, with a similar hydrophobicity as A4-153]”, for which, in data set [1], the “2DC (±0.5), hydrocarbon thickness” value was 26.6 Å; the “DHH” value came out at 35.5 Å; the “area/lipid (±1)” value worked out at 80.9 Å^2. In data set [2], the “2DC (±0.5), hydrocarbon thickness” value came out at 29.7 Å; the “DHH” value is given as 38.9 Å; the “area/lipid (±1)” value worked out at 74.0 Å^2. For the same compound, in data set [3], the “fraction of protein in bulk solvent” value is on record as 0.27 ± 0.06, the “fraction of protein in hydrocarbons” value is reported as 0.51 ± 0.08 and the “fraction of protein in outer headgroups” value is 0.23 ± 0.07.
